Data from PubChem BioAssay AID1259415 (National Center for Advancing Translational Sciences (NCATS), 2018).
The list shows a part of the results, in another mix than the full data. Records with an inconclusive call do not appear. Activity calls are given as the source filed them. Cut-off read from the data, not from the text of the source: active = activity change below about -60%; inconclusive = no clear call, values can overlap the other calls; inactive = above about -39%.

Test: qHTS Assay for inhibitors of the human cytomegalovirus (HCMV)
Details: HFF cells, HCMV-luciferase reporter, 72 h; at 57.5 µM; stronger effect = lower value
How it was run: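 Compounds were evaluated in HFFs infected with an HCMV luciferase reporter virus (MOI 1 PFU/cell). Luciferase in lysates collected 72 h post infection served as the replication measure.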
% is set by controls: 0 for no effect and ±100 for the full control effect.

| Compound | activity change, negative = inhibition |
| --- | --- |
| O=[N+]([O-])c1cc([N+](=O)[O-])c(NCC2CCS(=O)(=O)C2)c([N+](=O)[O-])c1 (stereo not given) | inactive: -10.2% |
| O=C(NCC1(N2CCCCC2)CCCCC1)c1cccc(C(F)(F)F)c1 | inactive: 14.3% |
| O=C(NCC1(N2CCOCC2)CCCCC1)c1cc(=O)[nH]c2ccccc12 | inactive: -14.1% |
| COc1cc(C(=O)NCC2(N3CCCCC3)CCCCC2)ccc1OC(F)F | inactive: -12.4% |
| COc1ccc(NC2CCN(C(=O)OC(C)(C)C)CC2)cc1 | inactive: 18.2% |
| CC(C)c1ccc(C(=O)NCC2(N3CCOCC3)CCCCC2)cc1 | inactive: 26.9% |
| CN1CCN(CCOC(=O)C(O)(c2ccccc2)c2ccccc2)CC1 | inactive: 12.2% |
| CC(C)(C)n1nnnc1C(c1ccccc1)N1CCC(n2c(=O)[nH]c3ccccc32)CC1 (stereo not given) | inactive: -19.4% |
| O=C(NCC1(N2CCOCC2)CCCCC1)c1ccc(Cl)cc1 | inactive: 13.5% |
| O=C1CCN(Cc2ccccc2)CC1 | inactive: -28.2% |
| CCOc1ccc(C)cc1CN(CCCl)CCCl | inactive: -10.4% |
| COc1ccccc1C(=O)NCC1(N2CCOCC2)CCCCC1 | inactive: 2.27% |
| O=C(NCC1(N2CCCCC2)CCCCC1)c1ccc(F)cc1 | inactive: 0.656% |
| CCCCOc1ccc(C(=O)NCC2(N3CCOCC3)CCCCC2)cc1 | inactive: -7.09% |
| O=P1(N(CCCl)CCCl)SCCCS1 | inactive: 29.6% |
| CCOC(=O)N1CCC(Nc2ccc(F)cc2)CC1 | inactive: -1.46% |
| COc1ccc(NC2CCN(CCc3ccccc3)CC2)c(OC)c1 | inactive: -7.16% |
| COc1cc(C(=O)NCC2(N(C)C)CCCCC2)ccc1OC(F)F | inactive: -18.9% |
| CCOC(=O)N1CCC(Nc2cccc(C)c2)CC1 | inactive: 8.8% |
| O=c1[nH]c2ccccc2n1C1CCN(C(c2cccc3ccccc23)c2nnnn2C2CCCC2)CC1 (stereo not given) | inactive: -22.3% |
| COc1ccc(C(=O)NCC2(N3CCCCC3)CCCCC2)c(OC)c1OC | inactive: 24% |
| CC(C)(C)OC(=O)N1CCC(N(C(=O)c2ccccc2)c2ccc(F)cc2)CC1 | inactive: -10.4% |
| O=C(NCC1(N2CCCCC2)CCCCC1)c1ccc(=O)[nH]c1 | inactive: -2.74% |
| CCCCn1nnnc1C(CC)N1CCC(n2c(=O)[nH]c3ccccc32)CC1 (stereo not given) | inactive: -27.8% |
| O=C(NCC1(N2CCCCC2)CCCCC1)c1cccs1 | inactive: -30.3% |
| CSc1ccccc1C(=O)NCC1(N2CCCCC2)CCCCC1 | inactive: 0% |
| Cc1cccc(NC2(C#N)CCN(Cc3ccccc3)CC2)c1 | inactive: 46.4% |

| Compound | activity change, negative = inhibition |
| --- | --- |
| O=c1[nH]c2ccccc2n1C1CCN(C(c2ccccc2OC(F)(F)F)c2nnnn2C2CCCCC2)CC1 (stereo not given) | inactive: -32.9% |
| O=C(NCC1(N2CCCCC2)CCCCC1)c1ccc(Cl)nc1 | inactive: -25.3% |
| Cc1cc(C)cc(N(C(=O)c2ccccc2)C2CCN(C(=O)OC(C)(C)C)CC2)c1 | inactive: -33.9% |
| O=C(NCC1(N2CCOCC2)CCCCC1)c1cc2ccccc2o1 | inactive: -7.89% |
| O=c1[nH]c2ccccc2n1C1CCN(C(c2cc3ccccc3o2)c2nnnn2C2CCCCC2)CC1 (stereo not given) | inactive: -23.6% |
| O=C(OC1CN2CCC1CC2)C1c2ccccc2Oc2ccccc21 (stereo not given) | inactive: -5.02% |
| N#CC1(Nc2ccccc2)CCN(Cc2ccccc2)CC1 | inactive: 37.2% |
| O=C(NCC1(N2CCCCC2)CCCCC1)c1ccc(Cl)s1 | inactive: -3.86% |
| O=C1C(O)=C([N+](=O)[O-])C(=O)C(O)=C1[N+](=O)[O-] | inactive: -34.2% |
| COc1ccc(Cl)cc1C(=O)NCC1(N2CCOCC2)CCCCC1 | inactive: -1.66% |
| CCOC(=O)N1CCC(Nc2ccc(OC)cc2)CC1 | inactive: -15.6% |
| CCOc1ncccc1C(=O)NCC1(N2CCOCC2)CCCCC1 | inactive: -1.34% |
| CN1CCC(Nc2ccc(F)c(Cl)c2)CC1 | inactive: 2.21% |
| CC(C)(C)OC(=O)N1CCC(Nc2ccccc2)CC1 | inactive: 11% |
| NN(c1ccccc1)C1CCN(CCc2ccccc2)CC1 | inactive: -24.2% |
| O=C(O)C1(Nc2ccccc2)CCN(Cc2ccccc2)CC1 | inactive: 4.73% |
| COc1cc(C(=O)NCC2(N3CCOCC3)CCCCC2)cc(OC)c1OC | inactive: 9.48% |
| COc1cc(OC)cc(C(=O)NCC2(N3CCOCC3)CCCCC2)c1 | inactive: -22.8% |
| CCC(CO)(C(=O)OC1CN2CCC1CC2)c1ccccc1 (stereo not given) | inactive: -12.4% |
| CN1CCC(Nc2ccc(Cl)cc2)CC1 | inactive: 20% |
| CC(=O)N(c1ccccc1)C1CCNCC1 | inactive: -23.7% |
| CN(C)C1(CNC(=O)c2ccc(C(C)(C)C)cc2)CCCCC1 | inactive: -15.9% |
| CCC(c1nnnn1C1CCCCC1)N1CCC(n2c(=O)[nH]c3ccccc32)CC1 (stereo not given) | inactive: -37.9% |
| Cc1ccc(C(=O)NCC2(N3CCCCC3)CCCCC2)o1 | inactive: -22.4% |
| Cc1ccc(NC2(C#N)CCN(Cc3ccccc3)CC2)cc1 | inactive: 17.1% |
| Cc1ccccc1NC1(C#N)CCN(Cc2ccccc2)CC1 | inactive: -2.69% |
| CC(C)(C)n1nnnc1C(c1ccnc2ccccc12)N1CCC(n2c(=O)[nH]c3ccccc32)CC1 (stereo not given) | inactive: -3.72% |

| Compound | activity change, negative = inhibition |
| --- | --- |
| COc1ccc(C(c2nnnn2C2CCCCC2)N2CCC(n3c(=O)[nH]c4ccccc43)CC2)cc1 (stereo not given) | inactive: -24.8% |
| CCN1CCC(Nc2cccc(F)c2)CC1 | inactive: 5.04% |
| Cc1ccccc1C(=O)NCC1(N(C)C)CCCCC1 | inactive: 8.31% |
| CC(C)(C)c1ccc(C(=O)NCC2(N3CCOCC3)CCCCC2)cc1 | inactive: 4.27% |
| O=C(NCC1(N2CCCCC2)CCCCC1)c1ccco1 | inactive: -12.2% |
| CN(C)c1ccc(C(=O)NCC2(N3CCCCC3)CCCCC2)cc1 | inactive: -14.4% |
| O=C(NCC1(N2CCOCC2)CCCCC1)c1ccccc1[N+](=O)[O-] | inactive: 14.6% |
| N#Cc1ccc(C(=O)NCC2(N3CCCCC3)CCCCC2)cc1 | inactive: -13.6% |
| O=C(NCC1(N2CCOCC2)CCCCC1)c1ccc([N+](=O)[O-])cc1 | inactive: 9.53% |
| CCOC(=O)C(CC)C1=NC(C)(C)Cc2ccccc21.O=[N+]([O-])c1cc([N+](=O)[O-])c(O)c([N+](=O)[O-])c1 (stereo not given) | inactive: 0% |
| CN(C)C1(CNC(=O)c2cccc(C#N)c2)CCCCC1 | inactive: -9.18% |
| c1ccc(CN2CCC(Nc3ccccc3)CC2)cc1 | inactive: 18.7% |
| C/C(N)=N\P(=O)(Oc1ccccc1)Oc1ccccc1 | inactive: -27.4% |
| CCCN1CCC(Nc2cc(OC)cc(OC)c2)CC1 | inactive: 31.7% |
| O=C(NCC1(N2CCOCC2)CCCCC1)c1ccccc1 | inactive: -2.29% |
| Cc1cc(N(CCCl)CCCl)ccc1C=O | active: -70.7% |
| CC(C)(C)n1nnnc1C(c1cccc2ccccc12)N1CCC(n2c(=O)[nH]c3ccccc32)CC1 (stereo not given) | inactive: -21.1% |
| O=C(NCC1(N2CCOCC2)CCCCC1)c1cc(Br)ccc1Cl | inactive: -10.3% |
| O=c1[nH]c2ccccc2n1C1CCN(C(c2cccs2)c2nnnn2C2CCCCC2)CC1 (stereo not given) | inactive: -39.8% |
| COc1ccc(C(=O)NCC2(N3CCOCC3)CCCCC2)cc1OC | inactive: 20.3% |
| O=c1[nH]c2ccccc2n1C1CCN(C(c2ccnc3ccccc23)c2nnnn2C2CCCC2)CC1 (stereo not given) | inactive: -5.38% |
| COc1cccc(C(c2nnnn2C(C)(C)C)N2CCC(n3c(=O)[nH]c4ccccc43)CC2)c1OC (stereo not given) | inactive: -20.6% |
| CCOC(=O)N1CCC(Nc2ccc(C)cc2)CC1 | inactive: -6.1% |
| N/C(=N\O)c1c(N)no[n+]1[O-] | inactive: -16.6% |
| O=C(O)c1cccc(Nc2c([N+](=O)[O-])cc([N+](=O)[O-])cc2[N+](=O)[O-])c1 | inactive: -27.2% |
| O=c1[nH]c2ccccc2n1C1CCN(C(c2cccs2)c2nnnn2C2CCCC2)CC1 (stereo not given) | inactive: -38% |
